Results deposited as PubChem BioAssay AID624099 (ICCB-Longwood, 2012)
This is an unselected part of about 21,000 reagents tested. In the full data, 497 (2.4%) are marked active. 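Higher z means weaker E2 silencing; only reporter increases were scored, and knock-downs that hurt cell survival may mask genuine repressor factors.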 Entries without a mark were called inactive. Reagents against one gene are numbered here.

Assay: 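Human genes that papillomavirus E2 requires to repress the HPV18 LCR promoter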 (primary screen)
Cell system: human C33A cervical carcinoma cells (HPV-negative) stably expressing BPV1 E2 and an HPV18 LCR luciferase reporter
Knock-down reagent: siRNA pool against human genes, 40 nM
Timing: 72 h
Read-out: 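HPV18 LCR reporter light per well, converted to plate-wise z-scores that exclude control wells, and averaged over triplicate plates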
Scale: mean z-score and z-score: higher = stronger reporter signal, weaker E2 silencing
Hit rule: 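Hit if mean z-score reaches 2 and two or more of three replicate z-scores also reach 2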

Target gene	reagent	mean z-score	z-score, replicate A	z-score, replicate B	z-score, replicate C
MAFA	1	0.8	0.21	1.48	0.71
LIN7A	1	1.53	1.9	1.1	1.59
OR2M4	1	0.99	0.9	0.73	1.33
YIPF1	1	0.34	0.29	0.56	0.18
GOLGA2P5	1	-0.14	0.2	-0.5	-0.14
TLL1	1	3.17 (active)	3.19	3.09	3.24
C8orf17	1	0.82	0.55	1.05	0.85
LRIT3	1	0	-0.24	0	0.23
OSBPL5	1	1.03	1.04	1.33	0.73
SPATA13	1	0.43	0.12	1.1	0.09
SEMA3G	1	-0.45	-0.54	-0.43	-0.38
LAGE3	1	-1.63	-1.6	-1.7	-1.58
ATAD2B	1	-0.05	-0.22	-0.01	0.07
LMOD3	1	0.52	0.56	0.56	0.45
SLC35D3	1	-0.89	-0.53	-1.11	-1.04
ATRNL1	1	-0.41	-0.52	-0.48	-0.22
FADS1	1	0.79	1.21	0.57	0.6
DNAJB5	1	-0.48	-0.53	-0.54	-0.36
CXXC5	1	-0.62	-0.16	-1.03	-0.67
NFU1	1	-0.73	-0.73	-0.64	-0.82

Next part, starting with the last 4 of the part before.
Target gene	reagent	mean z-score	z-score, replicate A	z-score, replicate B	z-score, replicate C
FADS1	1	0.79	1.21	0.57	0.6
DNAJB5	1	-0.48	-0.53	-0.54	-0.36
CXXC5	1	-0.62	-0.16	-1.03	-0.67
NFU1	1	-0.73	-0.73	-0.64	-0.82
TSHZ2	1	-0.72	-0.64	-0.7	-0.82
INSL6	1	0.05	-0.09	0.11	0.12
EPHB3	1	0.98	1.34	0.98	0.63
ATP6V1B1	1	-0.94	-0.7	-0.77	-1.35
TDRD5	1	-0.48	-0.51	-0.42	-0.52
OARD1	1	0.08	-0.14	0.14	0.24
SAT1	1	-0.66	-0.45	-0.41	-1.12
LOC402414 (retired record)	1	-0.58	-0.91	-0.43	-0.4
RPL35P10	1	-0.66	-0.84	-0.75	-0.4
RPL27	1	-1.95	-1.79	-2.17	-1.88
FGF13	1	-0.99	-1.07	-0.85	-1.05
FGF13	2	0.23	0.6	0.11	-0.02
LOC387941 (retired record)	1	-0.67	-0.81	-0.25	-0.96
LOC253662 (retired record)	1	-0.08	0.25	-0.05	-0.44
ANGPTL6	1	-0.71	-0.84	-0.89	-0.41
LINC01116	1	0.43	0.2	0.66	0.43
PWWP2A	1	-1.12	-1.33	-0.74	-1.28
TNNC2	1	-0.08	-0.28	0.12	-0.07
CCNJL	1	0.25	0.1	0.12	0.52
MARS1	1	-0.39	-0.23	-0.72	-0.22
ZNF610	1	-0.68	-0.56	-0.76	-0.71
SPATA2L	1	0.29	0.4	0.22	0.25
VPS9D1	1	-1.11	-0.88	-1.28	-1.18
ANKRD13C-DT	1	0.88	0.8	1.09	0.74
PLGLA	1	1.25	1.33	1.29	1.14
ATP6V0C	1	2.09 (active)	2.14	1.88	2.26
RAVER1	1	1.19	1.28	1.26	1.02
SI	1	-1.54	-1.47	-1.7	-1.44
ABCD3	1	1.92	2.08	1.78	1.91
XPO6	1	0.35	0.42	0.33	0.29
RHEBL1	1	1.35	1.63	1.18	1.25
CDK2	1	-0.65	-1	-0.57	-0.36
TLE3	1	1.14	0.55	1.52	1.35
H2AC8	1	0.22	0.54	0.16	-0.04
POGLUT2	1	0.88	0.87	0.97	0.8
SRSF3	1	0.44	-0.03	0.74	0.6
FAM204A	1	0.7	0.99	0.73	0.37
